# Values from PubChem BioAssay AID624099 (ICCB-Longwood, 2012).
# Test: 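Knock-downs relieving repression by E2 of an HPV18 LCR luciferase reporter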 (primary screen)
# System: human C33A cervical carcinoma cells (HPV-negative) stably expressing BPV1 E2 and an HPV18 LCR luciferase reporter
# Reagents: siRNA pool against human genes, 40 nM
# Duration: 72 h
# Read-out: 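HPV18 LCR reporter light per well, converted to plate-wise z-scores that exclude control wells, and averaged over triplicate plates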
# Direction: mean z-score and z-score: higher = stronger reporter signal, weaker E2 silencing
# Call rule: 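Hit if mean z-score reaches 2 and two or more of three replicate z-scores also reach 2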
# In all, the deposit lists about 21,000 reagents; below is a part drawn at random. 497 of them (2.4%) count as active. 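Higher z means weaker E2 silencing; only reporter increases were scored, and knock-downs that hurt cell survival may mask genuine repressor factors.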
gene knocked down,PubChem SID,mean z-score,"z-score, replicate A","z-score, replicate B","z-score, replicate C",activity call
AMACR,SID134314199,0.31,0.26,0.45,0.21,inactive
HMGN2,SID134316971,1.47,2.45,0.77,1.19,inactive
CMAS,SID134314495,-1.92,-2,-2,-1.75,inactive
POF1B,SID134320591,0.12,0.72,0.04,-0.41,inactive
DOT1L,SID134318986,0.38,0.45,0.5,0.19,inactive
MCOLN2,SID134325120,-1.33,-1.36,-1.43,-1.2,inactive
TBX3,SID134316486,-0.11,-0.37,0.01,0.04,inactive
REPS2,SID134323602,-0.54,-0.69,-0.64,-0.28,inactive
RIC8A,SID134320130,1.79,1.6,2.02,1.76,inactive
ASH2L,SID134323594,-1.82,-1.73,-1.92,-1.79,inactive
MFAP2,SID134316047,-0.01,-0.05,-0.07,0.09,inactive
PHPT1,SID134320877,0.62,0.95,0.25,0.67,inactive
SIGLEC8,SID134317093,1.44,1.56,1.44,1.32,inactive
KLF17,SID134322289,1.43,1.29,1.49,1.51,inactive
SYVN1,SID134312213,-0.95,-0.84,-1.05,-0.96,inactive
LOXL2,SID134312952,-1.21,-1.09,-0.93,-1.61,inactive
ZNF326,SID134323071,0.71,0.82,0.79,0.52,inactive
PSMG2,SID134320659,0.09,-0.18,-0.06,0.53,inactive
CUL7,SID134321592,1.59,1.86,1.49,1.41,inactive
GIMAP5,SID134317571,1.24,0.87,1.55,1.28,inactive
OR1L3,SID134329884,-0.75,-0.96,-0.63,-0.66,inactive
JCAD,SID134326556,-0.45,-0.3,-0.87,-0.19,inactive
KCNJ15,SID134311663,-0.16,-0.13,-0.28,-0.06,inactive
ADAM3B,SID134329739,0.51,0.22,0.57,0.74,inactive
DNAAF1,SID134322221,1.25,1.25,0.87,1.63,inactive
FBXO42,SID134325314,0.21,0.25,0.26,0.13,inactive
STRN3,SID134322954,0.19,-0.09,-0.08,0.73,inactive
MRPS34,SID134317134,0.5,0.35,0.48,0.66,inactive
QTRT2,SID134322269,0.16,-0.23,0.22,0.5,inactive
ADH5P4,SID134327649,0.88,0.71,0.85,1.07,inactive
LARP4B,SID134326531,-0.7,-0.69,-0.48,-0.93,inactive

3 of these entries, set out differently:
{"gene knocked down": "SIGLEC8", "PubChem SID": "SID134317093", "mean z-score": 1.44, "z-score, replicate A": 1.56, "z-score, replicate B": 1.44, "z-score, replicate C": 1.32, "activity call": "inactive"}
{"gene knocked down": "KLF17", "PubChem SID": "SID134322289", "mean z-score": 1.43, "z-score, replicate A": 1.29, "z-score, replicate B": 1.49, "z-score, replicate C": 1.51, "activity call": "inactive"}
{"gene knocked down": "SYVN1", "PubChem SID": "SID134312213", "mean z-score": -0.95, "z-score, replicate A": -0.84, "z-score, replicate B": -1.05, "z-score, replicate C": -0.96, "activity call": "inactive"}

Additional results:
gene knocked down,PubChem SID,mean z-score,"z-score, replicate A","z-score, replicate B","z-score, replicate C",activity call
CCNK,SID134328127,1.6,1.52,1.7,1.58,inactive
STK35,SID56479054,1.25,1.27,1.18,1.31,inactive
SH3BP2,SID134319443,-0.37,-0.33,-0.35,-0.43,inactive
LGI1,SID134316289,0.14,0.18,0.15,0.09,inactive
GREM2,SID134322006,1.73,1.94,1.73,1.52,inactive
SHLD2,SID134317970,-1.07,-1.08,-1.06,-1.07,inactive
DTWD1,SID134322786,-0.26,-0.46,-0.16,-0.17,inactive
TPM3,SID134317036,-0.39,-0.35,-0.21,-0.62,inactive
OR4K5,SID134329926,0.54,0.18,0.71,0.72,inactive
ZNF772,SID134328943,-0.48,-0.51,-0.42,-0.51,inactive
LOC387784 (retired record),SID134328263,0.2,0.32,0.23,0.05,inactive
CNP,SID134322495,-0.35,-0.37,-0.22,-0.46,inactive
ITPR2,SID134311626,1.48,1.73,1.27,1.45,inactive
RAD23A,SID134310819,-0.91,-1.06,-0.93,-0.74,inactive
ZNF43,SID134323541,0.92,1.42,0.1,1.22,inactive
SGCA,SID134316797,0.18,0.15,0.17,0.21,inactive
TMEM9,SID134324738,-1.24,-1.65,-0.7,-1.36,inactive
RABIF,SID134322515,0.02,0.2,-0.05,-0.1,inactive
VCY,SID134311804,-0.09,-0.14,-0.19,0.05,inactive
C12orf57,SID134319621,-0.32,-0.63,-0.15,-0.17,inactive
LOC164036 (retired record),SID134325286,-0.4,-0.73,-0.57,0.1,inactive
TBX1,SID134316484,1.27,1.17,1.42,1.22,inactive
ARID3A,SID134316333,-0.82,-0.55,-0.92,-0.97,inactive
PNP,SID134314310,-0.89,-0.54,-1.01,-1.12,inactive
RPL8,SID134317931,0.99,0.93,0.99,1.05,inactive
PHACTR4,SID134318421,-1.25,-1.32,-1.21,-1.21,inactive
